# Primary screen of a compound library

Measurements from “University of Dundee, Small-Polar-MMV Screening Library” (2021), ChEMBL document CHEMBL3988442.

A: 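Whole-cell growth test on Mycobacterium tuberculosis, read after 3 days in glucose-containing 7H9 medium; the read-out is not stated. Compounds at 50 µM. Higher reads as more growth inhibition (inferred: compounds with an IC50 in retests scored well above the rest). About 69,000 compounds were tested under these conditions; 1.1% (about 760) showed 50% or more at least once.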
B: 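Growth of Mycobacterium tuberculosis over 4 days (cholesterol / DPPC medium with tyloxapol); the read-out is not stated. Compounds at 50 µM. The record gives no direction; compounds that gave an IC50 in retests scored well above the rest, so higher reads as more growth inhibition. Size under these conditions: about 69,000 compounds, about 370 of them at 50% or above in at least one test.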

Values are the deposited “Percent Effect”, in %.
The controls that fix the scale are not given in the record; negative values are as filed.
This is part of a subset picked to be rich in strong results.
Two or more numbers in one place are separate tests of the same structure; such repeats can differ widely.
A dash means the value is not listed here; it may have been measured.

Compound | A | B
COCCC(=O)NCC(O)c1c(F)cccc1F (configuration not stated) | 7.197% | -
COc1cccc(S(=O)(=O)NC(=O)C2CC(c3ccccc3)=NO2)c1 (configuration not stated) | - | 2.38%
Cc1nc(CCN)cc(N2CCC(O)(c3ccccc3)C2)n1 (configuration not stated) | 25.12% | -
CN(CCc1cccs1)C1CCCN(Cc2noc(C3CC3)n2)C1 (configuration not stated) | - | 50.75%
CN(Cc1cscn1)C1CCCN(Cc2noc(C3CC3)n2)C1 (configuration not stated) | -2.278% | -
c1ccc(CCCN2CCCC(Nc3cnc4ccccc4n3)C2)cc1 (configuration not stated) | 50.6% | -
O=C(c1cn(-c2ccccc2)nn1)N1CCCC(n2cccn2)C1 (configuration not stated) | - | -18.2%
Cc1ccsc1CN1CCc2nc3ccsc3c(=O)n2CC1.Cl | 23.64% | -10.82%
COCc1ccc(CNc2cncc(-n3cccn3)n2)cc1 | - | 20.88%
O=C(c1c[nH]c2ccccc2c1=O)N1CCSCC1 | 98.72% | -
O=C(CCc1ccccn1)N1CCCC1 | -6.918% | -7.502%
Cc1cc(CNc2ccc(C(F)(F)F)cc2)no1 | - | 50.66%
O=C(NCC1CCOC1)c1cc(-c2cccc(Cl)c2)on1 (configuration not stated) | -1.815% | -
CCN(CC)S(=O)(=O)c1ccc(CNC(=O)c2cc(C)on2)cc1 | - | 50.49%
CCCn1c(O)nnc1SCC1OCCc2ccccc21 (configuration not stated) | -8.566% | -
Fc1ccc([C@@H]2COC[C@H]2NCc2cccc(F)c2)cc1.O=C(O)CC(O)(CC(=O)O)C(=O)O | 3.941% | -
CS(=O)(=O)Cc1ccc(OCc2ccc(F)cc2)cc1 | 19.85% | -
CC(C)CCC(=O)NCCc1ccn(-c2ccccc2)n1 | 32.89% | 36.24%
Cc1nc(C(=O)N(C)CC(F)(F)C(F)(F)F)c2ccccn12 | -1.789% and 63.2% | -
CS(=O)(=O)N1CCCC1c1cccc(Cc2ccccc2F)n1 (configuration not stated) | 7.454% | -
CCOc1ccc(Cl)cc1CNCCCn1ccnc1 | - | -16.58%
COc1ccnc(N2CCN(C(=O)Cc3ccn(C(C)C)n3)CC2)n1 | 11.43% | -
CN1C(=O)C(c2ccccc2)CC12CCN(CCOCCO)CC2 (configuration not stated) | -24.54% | -
CNC(=O)NC(=O)CSC(C)c1ccccc1F (configuration not stated) | -17.51% | -
COCCc1noc(C2CCN(S(=O)(=O)c3cccs3)CC2)n1 | -25.89% | -28.4%
COc1ccc(C)cc1CN1CCn2cccc2C1C (configuration not stated) | 51.79% | -
Cc1ccccc1N1CCN(C(=O)c2cnc(C3CC3)nc2)C(C)C1 (configuration not stated) | 48.48% | -
O=C(c1cc(Br)c[nH]1)N1CCN(Cc2ccco2)CC1 | 0.7697% | 15.25%
CCOc1cc(CNc2nnn(C)n2)ccc1OCc1ccc(Cl)cc1 | 36.54% | -
CC1CCN(C(CNC(=O)Cn2cccn2)c2cccs2)CC1 (configuration not stated) | - | 3.867%
Cc1cc(C(=O)NCCSC2CCCC2)no1 | -17.43% | -
COC(=O)c1ccc(N2CCN(C(=O)CC(F)(F)F)C(C)C2)cc1 (configuration not stated) | -12.91% | -
CCc1cc(N(C)Cc2cc[nH]n2)n2nc(C)c(C)c2n1 | 37.8% | 18.81%
O=C(NC1CC1)C1CCCN(c2cccc(C(F)(F)F)n2)C1 (configuration not stated) | 45.74% | -
O=C(c1ccncc1)N(CCO)Cc1cc(Br)ccc1F | 9.157% and 1.081% | -
O=C(NCc1ccc(CO)cc1)C1CCOc2ccccc2C1 (configuration not stated) | - | 91.85%
Cc1nc(N2CCCC2)nc2c1CCN(Cc1nccn1C)CC2.O=C(O)C(F)(F)F | 18.06% | -3.975%
CCCc1nnsc1C(=O)NCC1CCN(c2ccccn2)CC1 | 60.95% and 19.67% | -
COC(=O)c1ccc(OCCn2cnc(C#N)n2)cc1 | 3.725% | -
CCOC(=O)CNC(=O)NCc1cc(C)n(-c2ccccc2OC)c1C | -15.41% | -
CC(C)NC(=O)NC(C)c1ccc(-c2ccncc2)cc1 (configuration not stated) | - | -8.231%
CC(CCn1cccn1)Nc1ccc(-c2nccn2C)nn1 (configuration not stated) | 8.212% | -
CN(Cc1cccs1)S(=O)(=O)c1ccc(C(F)(F)F)nc1 | 52.46% | -
CCN(C)S(=O)(=O)NCC(O)c1c(Cl)cccc1Cl (configuration not stated) | -9.97% and -3.503% | -5.516%
[H][C@]12CCN(C(=O)c3ccccc3C)C[C@@]1([H])OCCN(c1ncccn1)C2 | 89.31% | -
CN(Cc1ccc(F)cc1)C(=O)Cn1nc(-c2ccc(F)cc2)oc1=O | - | -18.34%
CN(Cc1cnccn1)S(=O)(=O)c1ccc(C(F)(F)F)nc1 | -9.32% | 103.5%
CN(C)c1cc2c(nn1)CCN(C(=O)c1cc3ccccc3[nH]c1=O)C2 | - | 77.94%
CC(NC(=O)CCn1c(=O)oc2ccccc21)c1ccccn1 (configuration not stated) | - | 3.526% and -5.047%
COCCN(C)C(=O)Cn1cccc(OC)c1=O | - | -26.81%
Clc1ccc(CNc2ccc(Cl)cn2)cc1 | 19.32% | -12.6%
CCOCCNc1nc(-c2ccncc2)nc2c1CCNCC2 | -12.9% and 1.537% | -
O=C1N(Cc2ccccc2F)CCCC12CCN(C1CCSCC1)C2 (configuration not stated) | 36.37% | -
COc1ncc(C)cc1NC(=O)COc1ccccc1F | -2.139% and 0.2997% | -6.366%
O=S(=O)(c1cccnc1)N1CCCC1COc1ccccc1 (configuration not stated) | 3.534% and 9.103% | -5.574%
N#Cc1cccc(S(=O)(=O)N2CCCCC2CCN2CCCC2)c1 (configuration not stated) | 60.69% | -
CC(CO)CSc1ncnc2[nH]ncc12 (configuration not stated) | -0.6469% | -9.407%
Cc1cc(CNc2cc(Cl)ccc2OCCS(C)(=O)=O)no1 | 17.61% | 7.347%
O=C(O)C(F)(F)F.O=C(O)C(F)(F)F.O=C(c1c[nH]cn1)N1CCC(F)(F)C2(CCN(c3ccccn3)C2)C1 (configuration not stated) | -0.7081% and -2.358% | -
Clc1ccc(NCc2nnc(C3CC3)o2)cc1Cl | 47.69% | 45.16%
CCn1cc(CNCCNc2ncc(Cl)cc2Cl)cn1 | -40.14% | -
[H][C@]12CC[C@]([H])(CN(Cc3[nH]cnc3C)C1)N(Cc1ccccc1SC)C2 | 12.13% and -31.93% | -
COC(C)(C)CC(C)NC(=O)Nc1ccccn1 (configuration not stated) | -12.63% | 1.651%
COc1cc(-c2ccc(F)c3c2OC(CN)C3)cc(OC)c1OC (configuration not stated) | 37.59% | 31.81% and 7.855%
O=C(O)C(F)(F)F.[H][C@]12CCCN(Cc3nccs3)[C@@]1([H])CN(S(C)(=O)=O)C2 | -22.75% and -14.68% | -
CCc1cc(C(=O)N2CCC(c3cc4ncccc4cn3)CC2)on1 | 0.4906% | 16.47%
O=C(N[C@@H]1CCNC[C@H]1O)c1ccc(F)c(Cl)c1 | - | 22.14%
CCOc1cccc(CNc2ccccc2OC)c1O | -13.62% | -
Cc1noc(C)c1CNC(=O)Nc1ccc(N2CCSCC2)cc1 | -6.531% | -
Cc1nc(NC(=O)COCC(F)(F)F)ccc1Br | 54.39% | -
CC(NC(=O)CN1CCN(c2cccc(Cl)c2)CC1)c1ccco1 (configuration not stated) | 38.71% | -6.868%
c1cc(CN2CCOC3(CCCC3)C2)no1 | -3.683% and -5.545% | 5.224%
CN(CCS(=O)(=O)c1cc(Cl)ccc1Cl)CC(N)=O | 42.16% and 45.21% | 18.11%

The first 8 entries again:

| Compound | A | B |
|---|---|---|
| `COCCC(=O)NCC(O)c1c(F)cccc1F` (configuration not stated) | 7.197% | - |
| `COc1cccc(S(=O)(=O)NC(=O)C2CC(c3ccccc3)=NO2)c1` (configuration not stated) | - | 2.38% |
| `Cc1nc(CCN)cc(N2CCC(O)(c3ccccc3)C2)n1` (configuration not stated) | 25.12% | - |
| `CN(CCc1cccs1)C1CCCN(Cc2noc(C3CC3)n2)C1` (configuration not stated) | - | 50.75% |
| `CN(Cc1cscn1)C1CCCN(Cc2noc(C3CC3)n2)C1` (configuration not stated) | -2.278% | - |
| `c1ccc(CCCN2CCCC(Nc3cnc4ccccc4n3)C2)cc1` (configuration not stated) | 50.6% | - |
| `O=C(c1cn(-c2ccccc2)nn1)N1CCCC(n2cccn2)C1` (configuration not stated) | - | -18.2% |
| `Cc1ccsc1CN1CCc2nc3ccsc3c(=O)n2CC1.Cl` | 23.64% | -10.82% |